Experimental data reported in US20200262877A1, “ION CHANNEL-BINDING PEPTIDES AND METHODS OF USE THEREOF” (priority 2017, published 2020).

What was measured:
Assay in all cases: cell-based or functional assay
TRPV1 = molecular target: TRPV1
Kv2.1 = molecular target: Kv2.1
GABA = molecular target: GABA
Cav2.2 = molecular target: Cav2.2
NR2A = molecular target: NR2A
α4β2 nicotinic receptor = molecular target: α4β2 nicotinic receptor
Kv1.3 = molecular target: Kv1.3
Kv1.1 = molecular target: Kv1.1
NR2B = molecular target: NR2B
α3β4 nicotinic receptor = molecular target: α3β4 nicotinic receptor
hERG, Q12809 = molecular target: T1, hERG, Q12809
T1 chain: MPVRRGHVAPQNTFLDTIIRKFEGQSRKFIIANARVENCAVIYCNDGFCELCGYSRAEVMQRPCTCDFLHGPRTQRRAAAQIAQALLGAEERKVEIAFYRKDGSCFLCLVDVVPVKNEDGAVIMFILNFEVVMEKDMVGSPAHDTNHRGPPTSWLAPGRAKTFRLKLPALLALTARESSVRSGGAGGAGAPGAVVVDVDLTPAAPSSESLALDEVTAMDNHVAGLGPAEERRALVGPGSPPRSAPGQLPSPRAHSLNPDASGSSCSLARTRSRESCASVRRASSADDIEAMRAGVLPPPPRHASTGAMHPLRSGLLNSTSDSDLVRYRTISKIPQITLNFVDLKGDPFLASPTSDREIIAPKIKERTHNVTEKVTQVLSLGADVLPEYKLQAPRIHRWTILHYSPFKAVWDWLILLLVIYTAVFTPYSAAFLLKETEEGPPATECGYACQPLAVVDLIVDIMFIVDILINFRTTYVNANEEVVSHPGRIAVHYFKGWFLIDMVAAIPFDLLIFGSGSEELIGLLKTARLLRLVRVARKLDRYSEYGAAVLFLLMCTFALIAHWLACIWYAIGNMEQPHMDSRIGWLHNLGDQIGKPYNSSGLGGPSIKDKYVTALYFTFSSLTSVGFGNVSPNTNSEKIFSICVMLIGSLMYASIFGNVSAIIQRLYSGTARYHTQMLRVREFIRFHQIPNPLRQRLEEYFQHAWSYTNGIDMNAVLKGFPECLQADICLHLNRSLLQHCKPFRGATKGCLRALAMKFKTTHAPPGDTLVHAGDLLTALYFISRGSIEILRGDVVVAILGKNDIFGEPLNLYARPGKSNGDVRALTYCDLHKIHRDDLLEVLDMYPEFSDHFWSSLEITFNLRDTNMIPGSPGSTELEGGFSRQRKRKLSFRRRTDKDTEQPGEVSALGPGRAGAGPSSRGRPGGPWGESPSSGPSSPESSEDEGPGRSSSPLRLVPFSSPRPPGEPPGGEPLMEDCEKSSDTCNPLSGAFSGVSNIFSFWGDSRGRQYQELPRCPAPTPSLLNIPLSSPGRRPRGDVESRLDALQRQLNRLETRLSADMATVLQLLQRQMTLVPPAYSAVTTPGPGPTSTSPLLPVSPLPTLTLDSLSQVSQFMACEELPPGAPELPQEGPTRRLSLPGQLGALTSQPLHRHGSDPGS

Kv1.2 = molecular target: Kv1.2
Kir2.1 = molecular target: Kir2.1
Cav2.1 = molecular target: Cav2.1
TRPA1 = molecular target: TRPA1
5HT3a = molecular target: 5HT3a

| Binder | % activity at 20 µM (TRPV1) [%] | % activity at 0.2 µM (Kv2.1) [%] | % activity at 0.2 µM (GABA) [%] | % activity at 20 µM (GABA) [%] | % activity at 0.2 µM (Cav2.2) [%] | % activity at 20 µM (Cav2.2) [%] | % activity at 0.2 µM (NR2A) [%] | % activity at 20 µM (NR2A) [%] | % activity at 20 µM (α4β2 nicotinic receptor) [%] | % activity at 0.2 µM (Kv1.3) [%] | % activity at 20 µM (Kv1.3) [%] | % activity at 20 µM (Kv1.1) [%] | % activity at 0.2 µM (NR2B) [%] | % activity at 20 µM (NR2B) [%] | % activity at 20 µM (α3β4 nicotinic receptor) [%] | % activity at 0.2 µM (hERG, Q12809) [%] | % activity at 20 µM (hERG, Q12809) [%] | % activity at 0.2 µM (Kv1.2) [%] | % activity at 20 µM (Kv1.2) [%] | % activity at 0.2 µM (Cav2.1) [%] | other results |
| --- | --- | --- | --- | --- | --- | --- | --- | --- | --- | --- | --- | --- | --- | --- | --- | --- | --- | --- | --- | --- | --- |
| GSQKILSNRCNNSSECIPHCIRIFGTRAAKCINRKCYCYP (modifications not checked) [SEQ ID NO: 13] | 88 | 104 | 107 | 93 | 121 | 100 | 94 | 108 | 80 | 68 | 64 | 79 | 122 | 117 | 83 | 89 | 67 | 88 | 40 | 109 | % activity at 20 µM (Kv2.1): 116%; % activity at 0.2 µM (Kv1.1): 107%; % activity at 20 µM (Kir2.1): 98%; % activity at 20 µM (Cav2.1): 100%; % activity at 0.2 µM (TRPA1): 129% |
| GSSDYCSNDFCFFSCRRDRCARGDCENGKCVCKNCHLN (modifications not checked) [SEQ ID NO: 22] | 67 | 110 | 99 | 124 | 130 | 86 | 107 | 129 | 83 | 100 | 51 | 97 | 94 | 97 | 92 | 84 | 79 | 82 | 34 | 98 | % activity at 0.2 µM (TRPV1): 102%; % activity at 20 µM (Kv2.1): 93%; % activity at 0.2 µM (α4β2 nicotinic receptor): 92%; % activity at 0.2 µM (Kv1.1): 83%; % activity at 0.2 µM (α3β4 nicotinic receptor): 98%; % activity at 0.2 µM (5HT3a): 77%; % activity at 20 µM (5HT3a): 95%; % activity at 0.2 µM (Kir2.1): 94%; % activity at 20 µM (Kir2.1): 97%; % activity at 20 µM (Cav2.1): 99%; % activity at 0.2 µM (TRPA1): 90%; % activity at 20 µM (TRPA1): 128% |
| GSSCAKPGEMCMRIKCCDGQCGCNRGTGRCFCK (modifications not checked) [SEQ ID NO: 24] | 102 | 91 | 96 | 114 | 120 | 102 | 102 | 100 | 88 | 94 | 73 | 69 | 102 | 92 | 87 | 88 | 78 | 74 | 83 | 92 | % activity at 0.2 µM (TRPV1): 131%; % activity at 0.2 µM (α4β2 nicotinic receptor): 97%; % activity at 0.2 µM (Kv1.1): 65%; % activity at 0.2 µM (α3β4 nicotinic receptor): 101%; % activity at 0.2 µM (5HT3a): 85%; % activity at 20 µM (5HT3a): 84%; % activity at 0.2 µM (Kir2.1): 104%; % activity at 20 µM (Kir2.1): 90%; % activity at 20 µM (Cav2.1): 121%; % activity at 0.2 µM (TRPA1): 132%; % activity at 20 µM (TRPA1): 107% |
| GSNCAGYMRECKEKLCCSGYVCSSRWKWCVLPAPWRR (modifications not checked) [SEQ ID NO: 18] | 61 | 93 | 113 | 106 | 132 | 124 | 98 | 79 | 92 | 87 | 7 | 78 | 107 | 78 | 89 | 98 | 62 | 67 | 30 | 97 | % activity at 0.2 µM (TRPV1): 93%; % activity at 20 µM (Kv2.1): 65%; % activity at 0.2 µM (α4β2 nicotinic receptor): 109%; % activity at 0.2 µM (Kv1.1): 98%; % activity at 0.2 µM (α3β4 nicotinic receptor): 110%; % activity at 0.2 µM (5HT3a): 95%; % activity at 20 µM (5HT3a): 79%; % activity at 0.2 µM (Kir2.1): 104%; % activity at 20 µM (Kir2.1): 93%; % activity at 20 µM (Cav2.1): 98%; % activity at 0.2 µM (TRPA1): 130%; % activity at 20 µM (TRPA1): 89% |
| GSVFINVKCRGSPECLPKCKEAIGKSAGKCMNGKCKCYP (modifications not checked) [SEQ ID NO: 29] | 86 | 91 | 123 | 104 | 116 | 100 | 93 | 87 | 101 | 21 | 0 | 64 | 101 | 82 | 98 | 95 | 78 | 77 | 42 | 100 | % activity at 0.2 µM (TRPV1): 109%; % activity at 20 µM (Kv2.1): 121%; % activity at 0.2 µM (α4β2 nicotinic receptor): 108%; % activity at 0.2 µM (α3β4 nicotinic receptor): 108%; % activity at 0.2 µM (5HT3a): 122%; % activity at 20 µM (5HT3a): 91%; % activity at 0.2 µM (Kir2.1): 103%; % activity at 20 µM (Cav2.1): 111%; % activity at 0.2 µM (TRPA1): 89%; % activity at 20 µM (TRPA1): 109% |
